# Experimental data reported in publication PMC4708017, “Antiplasmodial activity of iron(II) and ruthenium(II) organometallic complexes against Plasmodium falciparum blood parasites” (Memórias do Instituto Oswaldo Cruz, 2015).
# System: HepG2 human hepatoma cells
# Settings: MLD50 HepG2 / IC50 P. falciparum W2
# Procedure: The SI was calculated in order to give an insight into the therapeutic index of the molecules, i.e., how far the toxic concentration is from the therapeutic one.
row,SMILES,SI (MLD50/IC50)
1,CCC(=C(c1ccccc1)c1ccccc1)c1ccccc1 [Compound 1],42
2,CCC(=C(c1ccc(O)cc1)c1ccc(OCCCN(C)C)cc1)c1ccccc1 [Compound 2],Toxic (Molecules with SI ≤ 10 were also considered toxic)
